Compound potency records, mixed from different reports. Data source: NIAID ChemDB in PubChem.

Shared fields: cytotoxicity tests; cell line: L929; read-out: CC50

An empty or dashed field is not shown. CCn: concentration that lowers growth or viability of the cells by n%. Conditions beyond the fields shown may differ between rows.

compound	method	result
Cc1cc(OCCOCP(=O)(O)O)nc(N)n1	-	<10 µM
O=C(CC1NCCC[C@@H]1O)Cn1cnc2c(c1=O)CCCCC2	MTT	58.4 µg/mL
C=C1CCCC2[C@@H](CCC3(C)CCC([C@@H](C)C(=O)O)OO3)[C@H](C)CC[C@@]12C	-	<0.392 µM
N#Cc1c(N2CCCCC2)nsc1-c1ccccc1	-	25 µg/mL
C[N+]1(C)CCN(c2ncnc(Cl)c2[N+](=O)[O-])CC1	-	>500.5 µg/mL
Nc1cc(SCCOCP(=O)(O)O)nc(N)n1	-	<10 µM
O=C(CC1NCCC[C@@H]1O)Cn1cnc2ccccc2c1=O	MTT	0.167 µg/mL
CSc1nc(N)cc(OCCOCP(=O)(O)O)n1	-	<10 µM
CCc1ncn(CC(=O)CC2NCCC[C@@H]2O)c(=O)c1CC	MTT	72.3 µg/mL
Nc1cc(=O)n(CCOCP(=O)(O)O)cn1	-	<10 µM
CCCSc1nsc(-c2ccccc2)c1C#N	-	200 µg/mL
Nc1cc(=O)n(CCOCP(=O)(O)O)c(N)n1	-	<10 µM
CCCSc1nsc(-c2ccccc2)c1C(N)=O	-	300 µg/mL
ClCN1CC[N+]2(CC1)CC[N+]1(CCN(CCl)CC1)CC2	-	437.3 µg/mL
N#Cc1c(N2CCCC2)nsc1-c1ccccc1	-	7 µg/mL
Nc1cc(OCCOCP(=O)(O)O)ncn1	-	<10 µM
O=C(CC1NCCC[C@@H]1O)Cn1cncc(-c2ccccc2)c1=O	MTT	6.3 µg/mL
OC(CCl)CN1CC[N+]2(CC1)CC[N+]1(CCN(CC(O)CCl)CC1)CC2	-	>415.5 µg/mL
Nc1nc(OCCOCP(=O)(O)O)cc(OCCOCP(=O)(O)O)n1	-	<10 µM
Cc1cc(Cl)c([N+](=O)[O-])c(N2CC[N+]3(CC2)CC[N+]2(CCN(c4nc(C)cc(Cl)c4[N+](=O)[O-])CC2)CC3)n1	-	>313.3 µg/mL
N#Cc1c(SCCCCBr)nsc1-c1ccccc1	-	25 µg/mL
O=C(CCCc1ccccc1)N1CC[N+]2(CC1)CC[N+]1(CCN(C(=O)CCCc3ccccc3)CC1)CC2	-	>339.2 µg/mL
CSc1nsc(-c2ccccc2)c1C(=O)O	-	500 µg/mL

The first 3 rows once more:

compound	method	result
Cc1cc(OCCOCP(=O)(O)O)nc(N)n1	-	<10 µM
O=C(CC1NCCC[C@@H]1O)Cn1cnc2c(c1=O)CCCCC2	MTT	58.4 µg/mL
C=C1CCCC2[C@@H](CCC3(C)CCC([C@@H](C)C(=O)O)OO3)[C@H](C)CC[C@@]12C	-	<0.392 µM